A mixed list of measured activities; the numbers were collected in NIAID ChemDB.

All rows: tests in culture; organism: Mycobacterium tuberculosis

Inhibition is in % at the dose shown (toxicity tests: loss of growth or viability). An empty or dashed field is not shown. MIC bound comes from a single tested concentration. Neighbouring rows are from separate reports. Two numbers with a dash give a range or band. MIC50, MIC90 and the like: level of inhibition, or share of isolates inhibited. ECn is the concentration giving n% inhibition of infection, replication or growth.

structure | strain | changes | read by | measure | dose | value
O=C1C(c2ccc(Cl)cc2)=[N+]([O-])c2cc3c(cc21)OCO3 | H37Rv |  | MTT | EC50 |  | 14.6 µM
Cl.Cl.N=C(N)c1ccc(NC(=O)c2ccc(C(=O)Nc3ccc(C(=N)N)cc3)c(N)c2)cc1 | H37Rv |  | BACTEC | inhibition | 12.5 µg/mL | 6%
CC[C@@H](CO)NCCN[C@@H](CC)CO | 17 strains |  |  | MIC |  | 0.95–1.9 µg/mL
NNC(=O)c1cccs1 | INM27833 | KatG S315T | visual reading | MIC99.9 |  | >50 µg/mL
O=C(O)c1c2n(c3cc([N+](=O)[O-])c(N4CCC(n5c(=O)[nH]c6ccc(Cl)cc65)CC4)cc3c1=O)CS2 | H37Rv |  | agar | MIC |  | 0.73 µM
S=c1oc(-c2ccncc2)nn1CN1CCCCCC1 | H37Rv |  |  | MIC |  | 40 µg/mL
COC(=O)C1=C(C)NC(Nc2cc(O)cc(Cl)c2)=NC1c1ccc(Cl)cc1 | XDR-TB |  | agar | MIC |  | >64 µg/mL
O=C(NN1C(=O)CSC1c1ccccc1F)c1ccncc1 | 16PI |  |  | MIC |  | >5 µg/mL
COC(=O)C1=C(C)NC(Nc2ccc([N+](=O)[O-])cc2O)=NC1c1ccc(Cl)cc1 | XDR-TB |  | agar | MIC |  | >64 µg/mL
NC[C@H]1O[C@H](O[C@H]2[C@H](O)[C@@H](O[C@H]3O[C@H](CO)[C@@H](O)[C@H](N)[C@H]3O)[C@H](N)C[C@@H]2N)[C@H](O)[C@@H](O)[C@@H]1O | H37Rv | Kanamycin-resistant | resazurin / fluorescence | MIC90 |  | >2 µg/mL
COc1cc2c(cc1Cl)[n+]([O-])c(C#N)c(N)[n+]2[O-] | H37Rv |  |  | EC50 |  | <6.25 µg/mL
Oc1cc(CCc2ccccc2)ccc1Oc1ccc(Cl)cc1Cl | H37Rv |  |  | MIC |  | 52 µM
Cc1ccc(NC(=O)c2cc(Cl)ccc2N)cc1 | My 331/88 |  |  | MIC |  | 62 µM
O=C1C(c2ccccn2)=[N+]([O-])c2ccccc21 | H37Rv |  | MTT | MIC |  | 50 µM
Oc1cc(CC2CCCCC2)ccc1Oc1ccc(Cl)cc1Cl | H37Rv |  |  | MIC |  | 27 µM
O=C(N/N=C/c1ccc(Cl)cc1Cl)c1ccncc1 | 14PI |  |  | MIC |  | >5 µg/mL
O=C(Cc1cccs1)N/N=C/c1sccc1[N+](=O)[O-] | H37Rv (ATCC 27294) |  | resazurin | MIC |  | 8.5 µM
CC(C)(C)NC(=O)C1c2ccccc2CCN1c1cc2c(=O)c(C(=O)O)c3n(c2cc1[N+](=O)[O-])CS3 | H37Rv |  | agar | MIC |  | 3.07 µM
CC/C(=C(\c1ccccc1)c1ccc(OCCN(C)C)cc1)c1ccccc1 | INH-r |  | resazurin | MIC |  | 6.25–12.5 µg/mL
C[C@H]1COc2c(N3CCN(C)CC3)c(F)cc3c(=O)c(C(=O)O)cn1c23 | H37Rv |  | agar | MIC |  | 0.5 µg/mL
CN1CCN(Cn2nc(-c3ccncc3)oc2=S)CC1 | H37Rv |  |  | MIC |  | 40 µg/mL
COc1ccc2c(c1)n([O-])c(C#N)c(N1CCN(c3ccc([N+](=O)[O-])cc3)CC1)[n+]2=O | H37Rv |  |  | inhibition | 6.25 µg/mL | 100%
CC1COc2c(N3CCN(C)CC3)c(F)cc3c(=O)c(C(=O)O)cn1c23 | 36 strains |  |  | MIC |  | 0.3–1.2 µg/mL
Cc1cc2c(cc1C)[n+](=O)c(N1CCN(c3ccc([N+](=O)[O-])cc3)CC1)c(C#N)n2[O-] | H37Rv |  |  | EC50 |  | <6.25 µg/mL
O=C(NN1C(=O)CS(=O)(=O)C1c1ccc(Cl)cc1Cl)c1ccncc1 | H37Rv |  |  | MIC |  | >5 µg/mL
COc1ccc(C2=[N+]([O-])c3ccccc3C2=O)cc1 | H37Rv |  | MTT | EC50 |  | 10.2 µM
Cc1nc2c([N+](=O)[O-])cccn2n1 | H37Rv |  | resazurin | MIC bound |  | >6.25 µg/mL
CN[C@@H]1[C@H](O[C@H]2[C@H](O[C@H]3[C@H](O)[C@@H](O)[C@H](N=C(N)N)[C@@H](O)[C@@H]3N=C(N)N)O[C@@H](C)[C@]2(O)C=O)O[C@@H](CO)[C@H](O)[C@H]1O | U118 |  |  | MIC |  | 0.25 µg/mL
COc1ccc2c(c1)c(=O)c1c(NCCNCCO)ccc3c(=O)n(CCN(C)C)c(=O)n2c31.Cl | H37Rv |  | resazurin | inhibition | 6.25 µg/mL | 40%
CC(C)c1ccc(NC(=O)c2cc(Cl)ccc2N)cc1 | My 331/88 |  |  | MIC |  | 16 µM
O=C1C(c2ccc(CO)cc2)=[N+]([O-])c2ccccc21 | H37Rv |  | MTT | MIC |  | 50 µM
CC(=O)N1CCN(Cn2nc(-c3ccncc3)oc2=O)CC1 | H37Rv |  |  | MIC |  | 2.5 µg/mL
O=C(NC(Cc1ccc(O)cc1)C(=O)NC(CO)C(=O)O)OCc1ccccc1 | H37Rv |  | BACTEC | MIC |  | ≥12.8 µg/mL
N#Cc1cnc(C(=O)c2ccc(O)cc2)cn1 | H37Rv |  | resazurin | inhibition | 6.25 µg/mL | 3%
O=c1c2ccccc2[nH]c2c([N+](=O)[O-])ccc(Oc3cccc(C(F)(F)F)c3)c12 | H37Rv |  | resazurin | inhibition | 6.25 µg/mL | 3%
COc1cc(C)cc(/C=N/NC(=O)Cc2cccs2)c1O | H37Rv (ATCC 27294) |  | resazurin | MIC |  | 344.4 µM
O=C(NCCCBr)c1csc(-c2csc(CCNC(=O)C(F)(F)F)n2)n1 | H37Rv |  | BACTEC | inhibition | 12.8 µg/mL | 6%
CC1CCCN(Cn2nc(-c3ccncc3)oc2=O)C1 | H37Rv |  |  | MIC |  | 1.25 µg/mL
O=C(O)c1c2n(c3cc([N+](=O)[O-])c(N4CCN(C(=O)c5ccco5)CC4)cc3c1=O)CS2 | H37Rv |  | agar | MIC |  | 1.71 µM
NC(=S)c1cnc(C(=O)c2ccc(O)cc2)cn1 | H37Rv |  | resazurin | EC50 |  | >6.25 µg/mL
CC1CCCN(Cn2nc(-c3ccncc3)oc2=S)C1 | H37Rv |  |  | MIC |  | 10 µg/mL
CCCCC(=O)N/N=C/c1c(O)cc(OC)cc1OC | H37Rv |  | BACTEC | inhibition | 12.5 µg/mL | -9%
S=c1oc(-c2ccncc2)nn1CN1CCC(Cc2ccccc2)CC1 | H37Rv |  |  | MIC |  | 40 µg/mL
S=C(S)NC1CCN(Cc2ccccc2)CC1 | H37Rv |  | BACTEC | MIC bound |  | >12.5 µg/mL
Nc1ccccc1C(=O)Nc1cccc(Cl)c1 | My 331/88 |  |  | MIC |  | >250 µM
COc1cc2c(cc1OC)[C@@H]1C(=O)c3ccc4c(c3O[C@@H]1CO2)C[C@H](C(C)C)O4 | H37Rv |  | BACTEC | inhibition | 12.5 µg/mL | -11%
[O-][n+]1ccc(CC2=C[C@@]3(O)CC/C=C\CCCCN4CC[C@@H]2[C@]2(C[C@@H]5CCCCCCN5C23)C4)cc1 | H37Rv |  |  | MIC |  | 27.6 µg/mL
COc1ccc2c(c1)[n+]([O-])c(C#N)c(N)[n+]2[O-] | H37Rv |  |  | MIC |  | >6.25 µg/mL
C/C=C/C/C=C/CCC(=O)[C@H]1O[C@H]1C(N)=O | Isolate 2H339 |  |  | MIC |  | 3 µg/mL
O=c1oc(-c2ccncc2)nn1CN1CCSCC1 | H37Rv |  |  | MIC |  | 2.5 µg/mL
COc1cc2c(cc1OC)CN(c1cc3c(=O)c(C(=O)O)c4n(c3cc1F)CS4)CC2 | H37Rv | MDR-TB | agar | MIC |  | 7.07 µM
CCC(C)c1ccc(NC(=O)c2cc(Cl)ccc2N)cc1 | My 331/88 |  |  | MIC |  | 31 µM
CCCC1=[N+]([O-])c2ccccc2C1=O | H37Rv |  | MTT | EC50 |  | 39.1 µM
CCOc1ccc(NC2=CC(=O)C(=O)c3ccccc32)cc1 | H37Rv |  | resazurin | MIC bound |  | <6.25 µg/mL
COc1ccc2cc(C3=[N+]([O-])c4ccccc4C3=O)ccc2c1 | H37Rv |  | MTT | EC50 |  | 1.8 µM
O=C(O)c1c2n(c3cc(F)c(N4CCC5(CC4)OCCO5)cc3c1=O)CS2 | H37Rv | MDR-TB | agar | MIC |  | 0.99 µM
Cc1cc2c(cc1C)[n+]([O-])c(C#N)c(N)[n+]2[O-] | H37Rv |  |  | MIC |  | 1.56 µg/mL
O=C(O)C(NCCNC(C(=O)O)c1ccccc1)c1ccccc1 | H37Rv |  |  | inhibition | 6.25 µg/mL | 0%
N#Cc1cnc(C(=O)c2ccccc2O)cn1 | H37Rv |  | resazurin | inhibition | 6.25 µg/mL | 5%
O[C@]12C=C(Cc3cc4cc(F)ccc4[nH]3)[C@@H]3CCN(CCCC/C=C\CC1)C[C@@]31C[C@@H]3CCCCCCN3C12 | H37Rv |  |  | MIC |  | 1.7 µg/mL
Cc1ccc(O)c(/C=N/NC(=O)Cc2cccs2)c1 | H37Rv (ATCC 27294) |  | resazurin | MIC |  | 364.5 µM
NC(CCC(=O)O)C(=O)NC(Cc1c[nH]c2ccccc12)C(=O)NC(CCC(=O)O)C(=O)O | H37Rv |  | BACTEC | inhibition | 12.5 µg/mL | 2%
NC(=O)c1cnc(C(=O)c2ccccc2)cn1 | H37Rv |  | resazurin | EC50 |  | >6.25 µg/mL
O=C1C2C3C=CC(O3)C2C(=O)N1Nc1ccccc1 | H37Rv |  | BACTEC | MIC bound |  | >12.5 µg/mL
COC(=O)C1=C(C)NC(Nc2ccc(F)c(Br)c2)=NC1c1ccc(Cl)cc1 | MDR-TB |  | agar | MIC |  | 32 µg/mL
O=C(Cc1cccs1)N/N=C/c1cccc(Br)c1 | H37Rv (ATCC 27294) |  | resazurin | MIC |  | >100 µg/mL
CN(C)c1cc[n+](/C(NS(=O)(=O)c2cc(C(=O)Nc3cccc4nsnc34)c(Cl)cc2[S-])=C(\C#N)C(=O)c2ccc(Cl)cc2)cc1 | H37Rv |  | resazurin | MIC bound |  | >6.25 µg/mL
CO[C@H]1/C=C/O[C@@]2(C)Oc3c(C)c(O)c4c(O)c(c(/C=N/N5C(C)CN(Cc6ccccc6)CC5C)c(O)c4c3C2=O)NC(=O)/C(C)=C\C=C\[C@H](C)[C@H](O)[C@@H](C)[C@@H](O)[C@@H](C)[C@H](OC(C)=O)[C@@H]1C | MDR-TB |  | agar | MIC |  | 16 µg/mL
Cc1cnc(CC2=C[C@@]3(O)CC/C=C\CCCCN4CC[C@@H]2[C@]2(C[C@@H]5CCCCCCN5C23)C4)cn1 | H37Rv |  |  | MIC |  | 14.4 µg/mL
O=C(O)c1cnc(C(=O)c2ccccc2)cn1 | H37Rv |  | resazurin | inhibition | 6.25 µg/mL | 15%
O=C(Cc1cccs1)N/N=C/c1cc(O)c(O)c(O)c1 | H37Rv (ATCC 27294) |  | resazurin | MIC |  | >100 µg/mL
Nc1ccc(Cl)cc1C(=O)Nc1ccc(F)cc1 | My 331/88 |  |  | MIC |  | 125 µM
COC(=O)C1=C(c2cc(OC)c(OC)c(OC)c2)OC(c2cc(OC)c(OC)c(OC)c2)C1 | H37Rv |  | BACTEC | MIC bound |  | >12.5 µg/mL
CN1CCN(c2cc3c(=O)c(C(=O)O)c4n(c3cc2F)CS4)CC1c1ccccc1 | H37Rv |  | agar | MIC |  | 7.36 µM
Cc1cccc(N2C(=O)/C(=C/c3ccc(N(CCC#N)CCC#N)cc3C)N=C2c2cc([N+](=O)[O-])ccc2Cl)c1 | H37Rv |  | BACTEC | inhibition | 12.5 µg/mL | 3%
COC(=O)c1cnc(C(=O)c2ccccc2)cn1 | H37Rv |  | resazurin | inhibition | 6.25 µg/mL | 48%
Cc1onc(-c2c(F)cccc2F)c1C(=O)N1CCN(c2cc3c(=O)c(C(=O)O)c4n(c3cc2[N+](=O)[O-])CS4)CC1 | H37Rv |  | agar | MIC |  | 5.36 µM
COc1ccc(CC2=NCCc3cc(OC)c(OC)cc32)cc1OC | H37Rv |  | BACTEC | MIC bound |  | >12.8 µg/mL
N#Cc1cnc(C(=O)c2ccc(Cl)cc2)cn1 | H37Rv |  | resazurin | inhibition | 6.25 µg/mL | 12%
COc1ccc2nc(C)c3c(c2c1)C(=O)N(CCC[N+]1([O-])CC[N+]([O-])(CCCN2C(=O)c4c(c5cc(OC)ccc5[n+]([O-])c4C)C2=O)CC1)C3=O | H37Rv |  | BACTEC | MIC |  | ≥12.5 µg/mL
NNC(=O)c1ccncc1 | CF74 |  | resazurin | MIC |  | >25 µg/mL
CC1(C)N=C(NN=C2CCCCC2)SP1(=O)NNc1ncccn1 | H37Rv |  | BACTEC | MIC bound |  | >12.5 µg/mL
O=C(Cc1cccs1)N/N=C/c1occc1[N+](=O)[O-] | H37Rv (ATCC 27294) |  | resazurin | MIC |  | 9 µM
CC(C)(C)OC(=O)N1N=NC2C3OC(CC3=O)C21 | H37Rv |  | BACTEC | MIC bound |  | >12.5 µg/mL
S=c1oc(-c2ccncc2)nn1CN1CCSCC1 | H37Rv |  |  | MIC |  | 40 µg/mL